Measured values from several laboratories, pooled; numbers as filed in NIAID ChemDB.

Common to all: tests in culture; agent: HIV-2; read-out: EC50

ECn: concentration that inhibits the pathogen or its effect by n%.

SMILES | setting | cells | strain or isolate | read by | value
CCCCCCCCCCCCCCC(=O)Oc1ccc(OP(=O)(OCc2ccc(OC(=O)CC(C)C)cc2)OP(=O)(O)OP(=O)(O)OC[C@@H]2C=C[C@H](n3cc(C)c(=O)[nH]c3=O)O2)cc1 | - | CEM | ROD | syncytia / visual reading | 0.23 µM
CCN[C@H]1[C@@H](OC)O[C@H](COP(=O)(O)OC[C@@H]2Oc3ccc([C@H]4Oc5cc(O)cc(O)c5C(=O)[C@@H]4O)cc3O[C@H]2c2ccc(O)c(OC)c2)[C@@H](O)[C@@H]1O | - | MT-4 | ROD | MTT | >140 µM
Cc1cnc(Nc2ccc(C#N)cc2)nc1C(C)(O)c1ccc(F)cc1 | - | MT-4 | ROD | MTT | >38.2 µM
CO[C@@H]1C[C@H](n2ncc3c(N)ncnc32)[C@@H](O)[C@H]1O | - | CEM | ROD | - | >250 µg/mL
Cc1cccc(C)c1NC(=O)c1ccc(N)cc1 | - | CEM | ROD | syncytia | >165 µM
Cc1cn([C@@H]2O[C@H](CO)[C@@H](O)[C@@H]2O)c(=O)n(CCF)c1=O | - | CEM | ROD | microscopy | >400 µg/mL
CCCCCCCCCCCCCCC(=O)Oc1ccc(COP(=O)(Oc2ccc(OC(=O)CCC(=O)OCCOCCOCCOC)cc2)OP(=O)(O)OP(=O)(O)OC[C@@H]2C=C[C@H](n3cc(C)c(=O)[nH]c3=O)O2)cc1 | - | CEM | ROD | syncytia / visual reading | 0.43 µM
CCc1nc(CC(=O)NN=C(C)C)nn1CC | - | MT-4 | ROD | cytopathic effect | >98.5 µg/mL
Cc1cn([C@H]2C[C@H](O)[C@@H](CO)O2)c(=O)n(CCF)c1=O | - | CEM | ROD | microscopy | >400 µg/mL
Cc1ccc(-c2nnc(-c3ccc(N)cc3)o2)cc1 | - | MT-4 | ROD | cytopathic effect | >35 µg/mL
COc1ccc2c(c1)C(=O)N(c1c(C)cccc1C)C2=O | - | CEM | ROD | syncytia | >140 µM
COC(=O)[C@H](C)NP(=O)(OC[C@@H]1C=C[C@H](n2cc(C)c(=O)[nH]c2=O)O1)Oc1ccccc1 | - | MT-4 | ROD | cytopathic effect / MTT | 0.067 µM
Cc1cccc(C)c1NC(=O)c1ccc([N+](=O)[O-])cc1 | - | CEM | ROD | syncytia | >29.3 µM
Nc1ncnc2c1ccn2[C@H]1C[C@@H](O)[C@H](O)[C@@H]1O | - | CEM | ROD | - | >250 µg/mL
CCCCC(=O)Oc1ccc(COP(=O)(Oc2ccc(OC(=O)CCC(=O)OCCOCCOCCOC)cc2)OP(=O)(O)OP(=O)(O)OC[C@@H]2C=C[C@H](n3cc(C)c(=O)[nH]c3=O)O2)cc1 | - | CEM | ROD | syncytia / visual reading | 0.76 µM
COc1cc([C@@H]2Oc3cc([C@H]4Oc5cc(O)cc(O)c5C(=O)[C@@H]4O)ccc3O[C@H]2CO)ccc1O | - | MT-4 | ROD | MTT | >36 µM
CC[C@@H](NS(=O)(=O)c1ccc(OC)cc1)c1n[nH]c(=S)o1 | - | MT-4 | ROD | cytopathic effect | >125 µg/mL
O=C1c2ccc([N+](=O)[O-])cc2C(=O)N1C12CC3CC(CC(C3)C1)C2 | - | CEM | ROD | syncytia | >304 µM
COc1cc([C@@H]2Oc3cc([C@H]4Oc5cc(O)cc(O)c5C(=O)[C@@H]4O)ccc3O[C@H]2COP(=O)(O)OC[C@H]2O[C@H](O[C@H]3O[C@H](CO)[C@@H](O)[C@H](O)[C@H]3O)[C@H](O)[C@@H](O)[C@@H]2O)ccc1O | - | MT-4 | ROD | MTT | >140 µM
COc1ccc(CSc2nc(C(=O)c3cccc(Br)c3)c(C)c(=O)[nH]2)cc1 | - | MT-4 | - | MTT | >252 µM
NC12CC3CC(CC(C3)C1)C2 | - | CEM | ROD | syncytia | >662 µM
CC(=O)c1ccc(N2CCN(c3cc4c(cc3N)c(=O)c(C(=O)O)cn4C)CC2)cc1 | - | MT-4 | ROD | cytopathic effect / MTT | >0.157 µg/mL
CSCC[C@H](NS(=O)(=O)c1ccc(C)cc1)c1n[nH]c(=S)o1 | - | MT-4 | ROD | cytopathic effect | 18 µg/mL
Cc1nc(Cc2n[nH]c(=S)n2-c2ccccc2)nn1C | - | MT-4 | ROD | cytopathic effect | >60.8 µg/mL
Cc1cn([C@@H]2O[C@H](CO)[C@@H](O)[C@@H]2O)c(=O)n(C)c1=O | - | CEM | ROD | microscopy | >400 µg/mL
O=S(=O)(NCCCc1n[nH]c(=S)o1)c1ccc(Cl)cc1 | - | MT-4 | ROD | cytopathic effect | >74 µg/mL
O=C(OC[C@H]1O[C@@H](OC(=O)c2cc(OS(=O)(=O)O)c(OS(=O)(=O)O)c(OS(=O)(=O)O)c2)[C@H](OC(=O)c2cc(OS(=O)(=O)O)c(OS(=O)(=O)O)c(OS(=O)(=O)O)c2)[C@@H](OC(=O)c2cc(OS(=O)(=O)O)c(OS(=O)(=O)O)c(OS(=O)(=O)O)c2)[C@@H]1OC(=O)c1cc(OS(=O)(=O)O)c(OS(=O)(=O)O)c(OS(=O)(=O)O)c1)c1cc(OS(=O)(=O)O)c(OS(=O)(=O)O)c(OS(=O)(=O)O)c1 | 5 d | MT-4 | ROD | MTT | 0.22 µg/mL
CCn1nc(CC(=O)N/N=C/c2ccco2)nc1C | - | MT-4 | ROD | cytopathic effect | >89 µg/mL
COc1ccc(-c2nnc(-c3ccc(N)cc3)o2)cc1 | - | MT-4 | ROD | cytopathic effect | >116 µg/mL
Cc1cccc(Nc2ccccc2C(=O)Nc2ccc(C(=O)/C=C/c3ccc(Cl)cc3)cc2)c1C | - | MT-4 | ROD | MTT / absorbance | >2.17 µM
S=c1[nH]nc(Cc2nc3n(n2)CCCCC3)o1 | - | MT-4 | ROD | cytopathic effect | >68 µg/mL
Cc1cccc(Nc2ccccc2C(=O)Nc2ccc(-c3cc(-c4ccccc4)nc(=S)[nH]3)cc2)c1C | - | MT-4 | ROD | MTT / absorbance | >13.9 µM
Cc1cccc(C)c1N1C(=O)c2ccccc2C1=O | - | CEM | ROD | syncytia | >784 µM
Cc1cccc(Nc2ccccc2C(=O)Nc2ccc(-c3cc(-c4ccc(N(C)C)cc4)nc(=S)[nH]3)cc2)c1C | - | MT-4 | ROD | MTT / absorbance | >7.02 µM
COc1ccc(CSc2nc(C(=O)c3ccc(Br)cc3)c(C)c(=O)[nH]2)cc1 | - | MT-4 | - | MTT | >201 µM

Repeating the final 2 entries:

SMILES	setting	cells	strain or isolate	read by	value
Cc1cccc(Nc2ccccc2C(=O)Nc2ccc(-c3cc(-c4ccc(N(C)C)cc4)nc(=S)[nH]3)cc2)c1C	-	MT-4	ROD	MTT / absorbance	>7.02 µM
COc1ccc(CSc2nc(C(=O)c3ccc(Br)cc3)c(C)c(=O)[nH]2)cc1	-	MT-4	-	MTT	>201 µM

Blank or dashed fields: not listed here. Neighbouring rows are from separate reports.